Measured values from several laboratories, pooled; numbers as filed in NIAID ChemDB.

All rows: whole-cell or culture tests; species: Varicella zoster virus; read-out: EC50

Lines come from different laboratories, so protocols vary. ECn: concentration that inhibits the pathogen or its effect by n%. Blank or dashed fields: not listed here.

smiles | cells | read by | strain or isolate | result
COc1nc(=O)n([C@H]2C[C@H](O)[C@@H](CO)O2)cc1/C=C/Cl | HEL | plaque count | YS/R (TK-) | >40 µg/mL
Cn1cc(C(=O)NCc2ccc(Cl)cc2)c(=O)c2cc(CN3CCOCC3)ccc21 | HFF | plaque count | Varicella isolate RN | 0.2 µM
CC1(C)[C@@H](CO)CC[C@@]1(C)Cn1cnc2c(N)ncnc21 | HEL | cytopathic effect | YS/R (TK-) | >50 µg/mL
O=c1[nH]c(=O)n([C@H]2C[C@H](O)[C@@H](CO)O2)cc1I | HEF | plaque count | Kanno-Kohmura (TK-) | 17 µg/mL
CC1(C)[C@@H](CO)CC[C@@]1(C)Cn1cnc2c(Cl)ncnc21 | HEL | cytopathic effect | YS/R (TK-) | >50 µg/mL
CC(NC(=S)Nc1ccc(NC(=O)c2ccccc2F)cc1)c1ccc(F)cc1 | HFF | ELISA | SC44 | 0.32 µg/mL
O=C(O)P(=O)(O)O | HEL | cytopathic effect | Clinical isolate VZV-5 | 91.3 µM
Nc1ncc2c(ncn2COC(CO)CO)n1 |  | cytopathic effect |  | 0.03 µg/mL
COc1cc(OC)c(NC(=S)Nc2ccc(NC(=O)c3ccccc3F)cc2Cl)cc1Cl | HFF | ELISA | ELLEN | >10 µg/mL
COc1ccc2c(c1)C=CC1(O2)N(C)c2ccccc2C1(C)C | HEL | plaque count | 07/1 (TK-) | >2.1 µM
O=C(O)CP(=O)(O)O | HEL | cytopathic effect | Oka acyclovir-resistant | 45.7 µM
CC1(C)[C@@H](CO)CC[C@@]1(C)Cn1cc(Br)c(=O)[nH]c1=O | HEL | cytopathic effect | OKA | >50 µg/mL
O=c1nc2oc(CCCC3OCCCO3)cc2cn1[C@H]1C[C@H](O)[C@@H](CO)O1 | HEL | plaque count | YS | >200 µM
CC1(C)[C@@H](CCO)C[C@H]1n1nnc2c(N)ncnc21 | HEL | plaque count | (TK+)/OKA | >20 µg/mL
COc1ccc2c(c1)OC1(C=C2)N(C)c2ccccc2C1(C)C | HEL | plaque count | YS (TK+) | 9.2 µM
Nc1nc2c(ncn2CCC(CO)CO)c(=O)[nH]1 | HEL | plaque count | 5 isolates | 14 µg/mL
Nc1nc2c(ncn2C[C@@H](CO)CCO)c(=O)[nH]1 | HEL | cytopathic effect / ELISA | 9/84 + PER + ULF + BIR + Y | 0.9 µM
Nc1nc2c(ncn2CCC(CO)CO)c(=O)[nH]1 | HEL | cytopathic effect | Oka PMEA-resistant | 19.5 µM
O=c1[nH]c(=O)n([C@H]2C[C@H](O)[C@@H](CO)O2)cc1I | HEL | cytopathic effect / ELISA | 9/84-C | >100 µM
Cc1cn(CCCC(O)CF)c(=O)[nH]c1=O | HEL | cytopathic effect | YS/R (TK-) | >50 µg/mL
CC1(C)[C@@H](CCO)C[C@H]1n1nnc2c(Cl)nc(N)nc21 | HEL | plaque count | TK+/YS | >20 µg/mL
O=c1[nH]c(=O)n([C@H]2C[C@H](O)[C@@H](CO)O2)cc1/C=C/I | HEF | plaque count | KANNO | 0.0005 µg/mL
CC1(C)[C@@H](CO)CC[C@@]1(C)Cn1nnc2c(Cl)ncnc21 | HEL | cytopathic effect | OKA | >50 µg/mL
Nc1nc(N)c2ncn(C[C@H]3CCC[C@H]3CO)c2n1 | HEL | plaque count | YS (TK+) | >50 µg/mL
CCCCCCCOCCc1cc2cn([C@H]3C[C@H](O)[C@@H](CO)O3)c(=O)nc2o1 | HEL | plaque count | 07/1 (TK-) | >50 µM
Nc1nc(N)c2ncn([C@H]3CCC[C@H]3CO)c2n1 | HEL | plaque count | YS (TK+) | >50 µg/mL
O=c1[nH]c(=O)n([C@@H]2O[C@H](CO)[C@@H](O)[C@@H]2O)cc1/C=C/Cl |  | plaque count | Kawaguchi | 0.00188 µg/mL
CCCCCCCCCCc1cc2cn([C@H]3C[C@H](O)[C@@H](CO)O3)c(=O)nc2o1 | HEL | plaque count | OKA | 0.015 µM
Nc1nc2c(ncn2CCC(O)CO)c(=O)[nH]1 | HEL | cytopathic effect / ELISA | 9/84 | 87 µM
CC1(C)[C@@H](CCO)C[C@H]1n1cnc2c(=O)[nH]cnc21 | HEL | plaque count | (TK+)/OKA | >50 µg/mL
Nc1nc2c(ncn2CC(CO)CCO)c(=O)[nH]1 | HEL | cytopathic effect / ELISA | 9/84 + PER + ULF + BIR + Y | 1.7 µM
CN1c2ccc(Cl)cc2C(C)(C)C12C=Nc1c(ccc3ccccc13)O2 | HEL | plaque count | 07/1 (TK-) | >8.8 µM
Nc1nc2c(ncn2C[C@H]2CCC[C@H]2CO)c(=O)[nH]1 | HEL | plaque count | OKA (TK+) | >50 µg/mL
Nc1ccn(CCCC(O)CF)c(=O)n1 | HEL | cytopathic effect | YS | >50 µg/mL
O=c1[nH]c(=O)n([C@H]2C[C@H](O)[C@@H](CO)O2)cc1/C=C\Cl | HEL | plaque count | OKA | 0.2 µg/mL
Nc1nc2c(ncn2C[C@H](CO)CCO)c(=O)[nH]1 | HEL | cytopathic effect / ELISA | 9/84-C | >100 µM
CN1c2ccccc2C(C)(C)C12C=Nc1c(ccc3ccccc13)O2 | HEL | plaque count | YS (TK+) | 4.7 µM
CCCOCCOCCCc1cc2cn([C@H]3C[C@H](O)[C@@H](CO)O3)c(=O)nc2o1 | HEL | plaque count | YS/R (TK-) | >200 µM
COc1ccc2c(c1)OC1(C=C2)N(C)c2ccc(Cl)cc2C1(C)C | HEL | plaque count | OKA (TK+) | 3.7 µM
Cc1cn(C(CF)CCCO)c(=O)[nH]c1=O | HEL | cytopathic effect | YS | >50 µg/mL
O=c1[nH]c(=O)n([C@H]2C[C@H](O)[C@@H](CO)O2)cc1/C=C/Br | HEF | plaque count | Kanno-Kohmura (TK-) | ≥56 µg/mL
CC1(C)[C@@H](CCO)C[C@H]1n1cnc2c(N)nc(N)nc21 | HEL | plaque count | (TK+)/OKA | >50 µg/mL
CC#COc1cn([C@H]2C[C@H](O)[C@@H](CO)O2)c(=O)[nH]c1=O | HEF | cytopathic effect | VEX411 | 0.5 µg/mL
Nc1ncnc2c1ncn2C[C@@H](CO)OCP(=O)(O)O | HEL | cytopathic effect | Oka BVaraU-resistant | 0.01 µM
CC1(C)c2ccccc2N(c2ccccc2)C12C=Nc1c(ccc3ccccc13)O2 | HEL | plaque count | OKA (TK+) | >8.2 µM
Nc1nc2c(ncn2COCCO)c(=O)[nH]1 | HEF | cytopathic effect | VEX411 | 0.4 µg/mL
Nc1nc2c(ncn2COC2COP(=O)(O)OC2)c(=O)[nH]1 | HEL | cytopathic effect / ELISA | 9/84 + PER + ULF + BIR + Y | 8.2 µM
O=c1[nH]c(=O)n([C@@H]2O[C@H](CO)[C@@H](O)[C@@H]2O)cc1/C=C/Br |  | plaque count | Kawaguchi acyclovir-resistant mutant A6 | 0.000113 µg/mL
CN1c2ccc(Cl)cc2C(C)(C)C12C=Cc1cc([N+](=O)[O-])ccc1O2 | HEL | plaque count | YS (TK+) | 2.7 µM